Assay results from article PMC7392676 (BMC Microbiology, 2020).

Experiments:
Xff strain Temecula [1] = assay type: cell-based, Xylella fastidiosa subsp. fastidiosa
Xff strain Temecula [2] = system: Xff strain Temecula
[3] = system: Xanthomonas axonopodis pv. vesicatoria; details: cited from earlier work
[4] = system: Pseudomonas syringae pv. syringae; details: cited from earlier work
Erwinia amylovora = details: cited from earlier work

Row | SMILES | Xff viable cells after treatment (in words) (Xff strain Temecula [1]) | activity class against Xff at different peptide concentrations (Xff strain Temecula [1]) | classification of activity against Xf (discussion) (Xff strain Temecula [1]) | Xff culturable cells after treatment (in words) (Xff strain Temecula [2]) | activity class against Xff at different peptide concentrations (Xff strain Temecula [2]) | minimal bactericidal concentration (MBC) (Xff strain Temecula [2]) [µg/mL] | minimal bactericidal concentration (MBC) (Xff strain Temecula [2]; 48 h) [µM] | MIC Xav [3] [µM] | MIC Psa [4] [µM] | MIC Ea (Erwinia amylovora) [µM] | reduction of cell viability (Xff strain Temecula [1]) | reduction of viability (Xff strain Temecula [1]) | cell culturability reduction (Xff strain Temecula [2]) | culturability of cells mixed with the peptide (Xff strain Temecula [2])
1 | CC[C@H](C)[C@H](NC(=O)[C@H](CC(C)C)NC(=O)[C@H](C)NC(=O)[C@@H]1CCCN1C(=O)[C@H](CC(C)C)NC(=O)CNC(=O)[C@@H](NC(=O)[C@@H](NC(=O)[C@H](C)NC(=O)[C@@H]1CCCN1C(=O)CNC(=O)[C@H](C)NC(=O)[C@H](CC(C)C)NC(=O)[C@H](Cc1ccc(O)cc1)NC(=O)[C@H](CCCCN)NC(=O)[C@H](CC(C)C)NC(=O)[C@@H](NC(=O)[C@H](CCCCN)NC(=O)[C@H](CCCCN)NC(=O)[C@H](Cc1ccccc1)NC(=O)[C@H](CC(C)C)NC(=O)[C@H](CCCCN)NC(=O)[C@@H](N)CCCCN)[C@@H](C)CC)[C@@H](C)O)[C@@H](C)O)C(=O)N[C@@H](CO)C(=O)N[C@@H](Cc1c[nH]c2ccccc12)C(=O)O [BP171] | reached the detection limit | highly active | highly active | reached the detection limit | highly active | 5 to 10 | 1.5 to 3.1 | 2.5 to 5.0 | 1.25 to 2.5 | 2.5 to 5.0 | – | – | – | –
2 | CC[C@H](C)[C@H](NC(=O)CNC(=O)[C@H](C)NC(=O)[C@@H]1CCCN1C(=O)CNC(=O)[C@H](C)NC(=O)[C@H](CC(C)C)NC(=O)[C@H](Cc1ccc(O)cc1)NC(=O)[C@H](CCCCN)NC(=O)[C@H](CC(C)C)NC(=O)[C@@H](NC(=O)[C@H](CCCCN)NC(=O)[C@H](CCCCN)NC(=O)[C@H](Cc1ccccc1)NC(=O)[C@H](CC(C)C)NC(=O)[C@H](CCCCN)NC(=O)[C@@H](N)CCCCN)[C@@H](C)CC)C(=O)NCC(=O)N[C@@H](CCCCN)C(=O)N[C@@H](Cc1ccccc1)C(=O)N[C@@H](CC(C)C)C(=O)N[C@@H](Cc1c[nH]cn1)C(=O)N[C@@H](CO)C(=O)N[C@@H](C)C(=O)N[C@@H](CCCCN)C(=O)N[C@@H](CCCCN)C(=O)N[C@@H](CC(=O)O)C(=O)N[C@@H](CCC(=O)O)C(=O)N[C@@H](CC(C)C)C(=O)O [BP178] | – | – | highly active | – | – | – | – | 2.5 to 5.0 | 2.5 to 5.0 | 2.5 to 5.0 | around 3 log | around 3 log | around 5 log | dropped abruptly to levels near the detection limit

Like-named read-outs stand apart in the source and are kept apart here.
